Measured values published in patent US8785655B2, “Ionic liquid solvents” (Dublin City University, priority 2009, dated 2014).
Several values for one entry are separate records, joined by “and”; a condition that tells them apart may be missing. Equal entries are not always repeated.

System: wastewater microorganisms
Assay: CO2 Headspace Test (ISO 14593), biodegradation

Molecule | % biodegradation (day 0) [%] | % biodegradation (day 6) [%] | % biodegradation (day 14) [%] | % biodegradation (day 21) [%] | % biodegradation (day 28) [%] | % biodegradation (day 6, sulfate) | % biodegradation (day 14, sulfate) | % biodegradation (day 28, sulfate)
CCCCCCCCOS(=O)(=O)[O-].CCOCCOC(=O)C(C)OC(=O)Cn1cc[n+](C)c1 (centres unmarked) [KG172, RS-3-methyl-1-[1-(ethoxyethoxycarbonyl)-1-methylmethoxycarbonylmethyl]imidazolium octyl sulphate] | 0 | 55 | 64 | 69 | 69 |  |  | 
CCCCCCCCOS(=O)(=O)[O-].CCCCCOC(=O)[C@@H](OC(=O)Cn1cc[n+](C)c1)c1ccccc1 [KG302, S-3-methyl-1-[1-(pentoxycarbonyl)-1-phenylmethoxycarbonylmethyl]imidazolium octyl sulphate] | 0 | 66 | 76 | 81 | 79 |  |  | 
CCCCCCCCOS(=O)(=O)[O-].CCCCCOC(=O)C(OC(=O)Cn1cc[n+](C)c1)c1ccccc1 (centres unmarked) [KG304, RS-3-methyl-1-[1-(pentoxycarbonyl)-1-phenylmethoxycarbonylmethyl]imidazolium octyl sulphate] | 0 | 64 | 78 | 79 | 82 |  |  | 
CCCCCCCCOS(=O)(=O)[O-].CCOCCOC(=O)[C@@H](OC(=O)Cn1cc[n+](C)c1)c1ccccc1 [KG305, S-3-methyl-1-[1-(ethoxyethoxycarbonyl)-1-phenylmethoxycarbonylmethyl]imidazolium octyl sulphate] | 0 | 73 | 77 | 85 | 83 |  |  | 
CCCCCCCCOS(=O)(=O)[O-].COC(=O)C(C)OC(=O)Cn1cc[n+](C)c1 (centres unmarked) [KG 162, RS-3-methyl-1-[1-(methoxycarbonyl)-1-methylmethoxycarbonylmethyl]imidazolium octyl sulphate] | 0 | 46 | 57 | 61 | 64 |  |  | 
CCCCCCCCOS(=O)(=O)[O-].CCCOC(=O)C(C)OC(=O)Cn1cc[n+](C)c1 (centres unmarked) [KG 166, RS-3-methyl-1-[1-(propoxycarbonyl)-1-methylmethoxycarbonylmethyl]imidazolium octyl sulphate] | 0 | 50 | 63 | 66 | 67 |  |  | 
CCCCCCCCOS(=O)(=O)[O-].CCCCCOC(=O)C(C)OC(=O)Cn1cc[n+](C)c1 (centres unmarked) [KG 170, RS-3-methyl-1-[1-(pentoxycarbonyl)-1-methylmethoxycarbonylmethyl]imidazolium octyl sulphate] | 0 | 52 | 65 | 72 | 72 |  |  | 
CCCCCCCCOS(=O)(=O)[O-].CCCCOC(=O)[C@@H](OC(=O)Cn1cc[n+](C)c1)c1ccccc1 [KG 306, S-3-methyl-1-[1-(butoxycarbonyl)-1-phenylmethoxycarbonylmethyl]imidazolium octyl sulphate] | 0 | 66 | 75 | 83 | 82 |  |  | 
CCCCCCCCOS(=O)(=O)[O-].CCCCOC(=O)C(OC(=O)Cn1cc[n+](C)c1)c1ccccc1 (centres unmarked) [KG 308, RS-3-methy1-1-[1-(butoxycarbonyl)-1-phenylmethoxycarbonylmethyl]imidazolium octyl sulphate] | 0 | 62 | 71 | 78 | 78 |  |  | 
CCCCCCCCCCCCOS(=O)(=O)[O-].[Na+] [SDS, Sodium n-dodecyl sulfate, reference compound] | 0 |  |  | 90 |  | 81% and 84% | 88% and 87% | 92% and 88%
R-3-methyl-1-[1-(ethoxyethoxycarbonyl)-1-methylmethoxycarbonylmethyl]imidazolium octyl sulphate [KG173] | 0 | 59 | 69 | 74 | 74 |  |  | 
R-3-methyl-1-[1-(ethoxyethoxycarbonyl)-1-phenylmethoxycarbonylmethyl]imidazolium octyl sulphate [KG301] | 0 | 63 | 73 | 78 | 80 |  |  | 
R-3-methyl-1-[1-(methoxycarbonyl)-1-methylmethoxycarbonylmethyl]imidazolium octyl sulphate [KG 163] | 0 | 49 | 60 | 63 | 67 |  |  | 
R-3-methyl-1-[1-(pentoxycarbonyl)-1-methylmethoxycarbonylmethyl]imidazolium octyl sulphate [KG171] | 0 | 54 | 67 | 70 | 71 |  |  | 
R-3-methyl-1-[1-(pentoxycarbonyl)-1-phenylmethoxycarbonylmethyl]imidazolium octyl sulphate [KG303] | 0 | 62 | 72 | 77 | 79 |  |  | 
R-3-methyl-1-[1-(propoxycarbonyl)-1-methylmethoxycarbonylmethyl]imidazolium octyl sulphate [KG 167] | 0 | 51 | 62 | 69 | 69 |  |  | 
